Anti-infective test results gathered from many reports (values: NIAID ChemDB through PubChem).

Shared fields: target-level tests; species: Toxoplasma gondii

ICn: concentration for n% inhibition.

S=c1nccc(Oc2ccccc2)[nH]1 ; measure: inhibition ; target: Uracil phosphoribosyltransferase ; tested at: 2000 µM ; strain: RH ; value: <10%
O=C([O-])C(=O)P(=O)([O-])[O-].[Na+].[Na+].[Na+] ; measure: IC50 ; target: Pyrophosphate-dependent phosphofructokinase ; value: >2000 µM
Cc1nc(NS(=O)(=O)c2ccc(N)cc2)nc(C)c1C ; measure: IC50 ; target: DHPS ; value: 1800 µM
Nc1nc(N)c2c(n1)Cc1ccc(Cl)cc1-2 ; measure: IC50 ; target: Dihydrofolate reductase ; value: 0.56 µM
CC1(C)N=C(N)N=C(N)N1c1ccc(F)c(C(F)(F)F)c1 ; measure: IC50 ; target: DHFR ; strain: RH ; value: 0.17 µM
Cc1nc(N)[nH]c(=O)c1CCCNS(=O)(=O)c1ccc(N)cc1 ; measure: inhibition ; target: DHPS ; tested at: 270 µM ; value: 100%
Cc1nc2nc(N)nc(N)c2nc1CN(C)c1ccc2c(Cl)cc(Cl)cc2c1 ; measure: IC50 ; target: DHFR ; value: >10 µM
Clc1ncccn1 ; measure: IC50 ; target: Uracil phosphoribosyltransferase ; strain: RH ; value: >2000 µM
CN(Cc1cnc2nc(N)nc(N)c2n1)c1ccc(C(=O)N[C@@H](CCC(=O)O)C(=O)O)c(Cl)c1Cl ; measure: IC50 ; target: DHFR ; strain: RH ; value: 0.0076 µM
CCOC(=O)/C(=N\Nc1ccc(OC)cc1[N+](=O)[O-])P(=O)(OCC)OCC ; measure: IC50 ; target: Pyrophosphate-dependent phosphofructokinase ; value: 100 µM
NS(=O)(=O)c1c[nH]c(=O)[nH]c1=O ; measure: IC50 ; target: Uracil phosphoribosyltransferase ; strain: RH ; value: >2000 µM
Cc1noc(NS(=O)(=O)c2ccc(N)cc2)c1C ; measure: IC50 ; target: DHPS ; value: 1150 µM
C1CCC([NH2+]C2CCCCC2)CC1.C1CCC([NH2+]C2CCCCC2)CC1.C1CCC([NH2+]C2CCCCC2)CC1.O=P([O-])([O-])C(F)(Cl)P(=O)([O-])O ; measure: IC50 ; target: Pyrophosphate-dependent phosphofructokinase ; value: >2000 µM
CCOc1ccc2sc(NS(=O)(=O)c3ccc(N)cc3)nc2c1 ; measure: IC50 ; target: DHPS ; value: 990 µM
CC(Oc1ccc(Oc2ncc(Cl)cc2F)cc1)C(=O)O ; measure: IC50 ; target: Acetyl-CoA carboxylase ; value: 20–100 µM
CN1CNc2[nH]c(=O)[nH]c(=O)c21 ; measure: Ki ; target: Phosphoribosyltransferase ; strain: RH ; value: 1900 µM
Cn1ccc(=O)[nH]c1=O ; measure: inhibition ; target: Uracil phosphoribosyltransferase ; tested at: 2000 µM ; strain: RH ; value: <5%
COc1cccc2c1CCN2Cc1cnc2nc(N)nc(N)c2c1C ; measure: IC50 ; target: Dihydrofolate reductase ; value: 0.057 µM
COc1cc(CCCN2CCc3nc(N)nc(N)c3C2)cc(OC)c1OC ; measure: IC50 ; target: DHFR ; value: 1.7 µM
Nc1nc(N)c2c(ccc3cc(Cl)ccc32)n1 ; measure: IC50 ; target: Dihydrofolate reductase ; value: 0.12 µM
Nc1nc(N)c2c(n1)CCC(CNc1cccc3ccccc13)C2 ; measure: IC50 ; target: DHFR ; value: 36 µM
Nc1ccc(S(=O)(=O)Nc2nc3c(c(=O)[nH]2)CCCC3)cc1 ; measure: IC50 ; target: DHPS ; value: 260 µM
NC(=O)c1[nH]cnc1N ; measure: Ki ; target: Phosphoribosyltransferase ; strain: RH ; value: 9 µM
S=c1nccc[nH]1 ; measure: Ki ; target: Uracil phosphoribosyltransferase ; strain: RH ; value: 180 µM
O=c1[nH]ncc2[nH]cnc12 ; measure: Ki ; target: Phosphoribosyltransferase ; strain: RH ; value: 25 µM
CCC/C(=N\OCC)C1C(=O)CC(CC(C)SCC)CC1=O ; measure: IC50 ; target: Acetyl-CoA carboxylase ; value: >400 µM
Nc1nc(N)c2cc(CO)cnc2n1 ; measure: IC50 ; target: Dihydrofolate reductase ; value: >104 µM
C1=CN2NC=NC2N=C1 ; measure: inhibition ; target: Phosphoribosyltransferase ; tested at: 900 µM ; strain: RH ; value: <10%
CCc1c[nH]c(=S)[nH]c1=O ; measure: inhibition ; target: Uracil phosphoribosyltransferase ; tested at: 2000 µM ; strain: RH ; value: <10%
CC(Oc1ccc(Oc2ncc(C(F)(F)F)cc2Cl)cc1)C(=O)O ; measure: IC50 ; target: Acetyl-CoA carboxylase ; value: 10–20 µM
Nc1ccc(S(=O)(=O)Nc2ccccn2)cc1 ; measure: IC50 ; target: DHPS ; value: 1000 µM
Ic1ncnc2nc[nH]c12 ; measure: inhibition ; target: Phosphoribosyltransferase ; tested at: 900 µM ; strain: RH ; value: <10%
Nc1nc(N)c2c(n1)CCc1cc(Cl)c(Cl)cc1-2 ; measure: IC50 ; target: Dihydrofolate reductase ; value: 0.07 µM
Nc1ncc[nH]1 ; measure: inhibition ; target: Phosphoribosyltransferase ; tested at: 900 µM ; strain: RH ; value: <10%
Nc1nc(N)c2c(Cl)c(CNc3ccc(C(=O)NC(CC(=O)O)C(=O)O)cc3)ccc2n1 ; measure: IC50 ; target: DHFR ; strain: RH ; value: 0.0011 µM
COc1cc(CN2CCc3nc(N)nc(N)c3C2)cc(OC)c1OC ; measure: IC50 ; target: DHFR ; value: 0.2 µM
CC(O)CN1CNc2c1c(=O)n(C)c(=O)n2C ; measure: Ki ; target: Phosphoribosyltransferase ; strain: RH ; value: 1900 µM
COc1cc([N+](=O)[O-])ccc1NN=C(P(=O)([O-])OC)P(=O)(OC)OC.[Na+] ; measure: IC50 ; target: Pyrophosphate-dependent phosphofructokinase ; value: 220 µM
Nc1nc(N)c2c(ccc3ccccc32)n1 ; measure: IC50 ; target: Dihydrofolate reductase ; value: 1.6 µM
COc1cc([N+](=O)[O-])ccc1NN=C(P(=O)(OC)OC)P(=O)(OC)OC ; measure: IC50 ; target: Pyrophosphate-dependent phosphofructokinase ; value: 180 µM
Cc1ccccc1-c1nc2c(N)nc(N)nc2nc1N ; measure: IC50 ; target: DHFR ; strain: RH ; value: 1.54 µM
Cc1cc(NS(=O)(=O)c2ccc(N)cc2)no1 ; measure: Ki ; target: DHPS ; value: 57.3 µM
CC1(C)N=C(N)N=C(N)N1c1ccc(C(=O)c2ccccc2)cc1.Cl ; measure: IC50 ; target: DHFR ; strain: RH ; value: 0.025 µM
C1CCC([NH2+]C2CCCCC2)CC1.C1CCC([NH2+]C2CCCCC2)CC1.O=C(O)/C(=N\Nc1ccccc1)P(=O)([O-])[O-] ; measure: IC50 ; target: Pyrophosphate-dependent phosphofructokinase ; value: 440 µM
Nc1nc(N)c2nc(-c3ccc(O)cc3)c(-c3ccc(O)cc3)nc2n1 ; measure: IC50 ; target: DHFR ; strain: RH ; value: 0.63 µM
Nc1ccc(S(=O)(=O)Nc2cccc3ncccc23)cc1 ; measure: IC50 ; target: DHPS ; value: 2400 µM
Nc1ncnc2[nH]ncc12 ; measure: Ki ; target: Phosphoribosyltransferase ; strain: RH ; value: 81 µM

a–b is a range or a potency band. Neighbouring rows are from separate reports. Inhibition is in % at the dose shown (toxicity tests: loss of growth or viability).